Test system: genotype 1a H-77 replicon
Experiment: HCV-1a replicon potency in RLuc-1 cells, bioluminescence
Type: cell-based
Settings: CC50/EC50, genotype 1a replicon

| Compound | HCV-1a Replicon Selectivity Index |
| --- | --- |
| Nc1nc(NCc2ccccc2)c2cc(-c3ccc(F)cc3)sc2n1 [Example 327, 2-amino-4-N-benzylamino-6-(4-fluorophenyl)-thieno[2,3-d]pyrimidine] | 0.6 |
| CCCc1nc2c(N3CCN(C(=O)COc4ccc(Cl)cc4)CC3)nc(N)nc2[nH]1 [Example 397, 1-(4-(2-amino-8-propyl-9H-purin-64)piperazin-1-yl)-2-(4-chlorophenoxy)ethanone] | >39 |
